Data as given in PubChem BioAssay AID624099 (ICCB-Longwood, 2012)

Aim: 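Knock-downs relieving repression by E2 of an HPV18 LCR luciferase reporter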 (primary screen)
Cell system: human C33A cervical carcinoma cells (HPV-negative) stably expressing BPV1 E2 and an HPV18 LCR luciferase reporter
Reagents: siRNA pool against human genes, 40 nM
Duration: 72 h
Read-out: 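Per-well luciferase luminescence, z-scored on each plate against the plate mean and SD with control wells left out, then averaged across three replicate plates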
Scale: mean z-score and z-score: higher = stronger reporter signal, weaker E2 silencing
Rule for the call: 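Mean z ≥ 2 together with z ≥ 2 in two or more of the three replicates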
This is an unselected part of about 21,000 deposited reagents. 497 of all reagents (2.4%) were called active. 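Higher z means weaker E2 silencing; only reporter increases were scored, and knock-downs that hurt cell survival may mask genuine repressor factors.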

MRPL4 [SID134321405] | mean z-score: 1.36; z-score, replicate A: 1.41; z-score, replicate B: 1.56; z-score, replicate C: 1.12; Outcome: inactive
EML1 [SID134316167] | mean z-score: 0.54; z-score, replicate A: 0.44; z-score, replicate B: 0.57; z-score, replicate C: 0.62; Outcome: inactive
FKBP9P1 [SID134313829] | mean z-score: -1.26; z-score, replicate A: -1.29; z-score, replicate B: -1.19; z-score, replicate C: -1.31; Outcome: inactive
RPL22L1 [SID134325783] | mean z-score: -4.95; z-score, replicate A: -5.08; z-score, replicate B: -5.02; z-score, replicate C: -4.75; Outcome: inactive
RGS9BP [SID134329547] | mean z-score: -0.36; z-score, replicate A: -0.47; z-score, replicate B: -0.52; z-score, replicate C: -0.1; Outcome: inactive
TCERG1 [SID134316560] | mean z-score: 0.4; z-score, replicate A: 0.37; z-score, replicate B: 0.55; z-score, replicate C: 0.26; Outcome: inactive
ZNF354B [SID134319273] | mean z-score: 0.02; z-score, replicate A: 0.39; z-score, replicate B: -0.43; z-score, replicate C: 0.11; Outcome: inactive
MAMLD1 [SID134323698] | mean z-score: 1.39; z-score, replicate A: 1.01; z-score, replicate B: 1.26; z-score, replicate C: 1.89; Outcome: inactive
ZNF829 [SID134328902] | mean z-score: 0.94; z-score, replicate A: 0.48; z-score, replicate B: 1.18; z-score, replicate C: 1.15; Outcome: inactive
LEUTX [SID134325810] | mean z-score: -0.23; z-score, replicate A: -0.32; z-score, replicate B: -0.29; z-score, replicate C: -0.09; Outcome: inactive
BTBD6 [SID134319152] | mean z-score: -0.44; z-score, replicate A: -0.07; z-score, replicate B: -0.96; z-score, replicate C: -0.28; Outcome: inactive
GIN1 [SID134324301] | mean z-score: -1.64; z-score, replicate A: -1.75; z-score, replicate B: -1.64; z-score, replicate C: -1.53; Outcome: inactive
PCSK1 [SID134311410] | mean z-score: 0.48; z-score, replicate A: 0.48; z-score, replicate B: 0.26; z-score, replicate C: 0.69; Outcome: inactive
LCT [SID134316038] | mean z-score: -1.36; z-score, replicate A: -1.12; z-score, replicate B: -0.98; z-score, replicate C: -1.98; Outcome: inactive

Next part (2 carried over from the part before).
PCSK1 [SID134311410] | mean z-score: 0.48; z-score, replicate A: 0.48; z-score, replicate B: 0.26; z-score, replicate C: 0.69; Outcome: inactive
LCT [SID134316038] | mean z-score: -1.36; z-score, replicate A: -1.12; z-score, replicate B: -0.98; z-score, replicate C: -1.98; Outcome: inactive
CCDC122 [SID134320721] | mean z-score: 0.79; z-score, replicate A: 0.74; z-score, replicate B: 1.33; z-score, replicate C: 0.3; Outcome: inactive
LINC-PINT [SID134327811] | mean z-score: 1.56; z-score, replicate A: 1.69; z-score, replicate B: 1.15; z-score, replicate C: 1.85; Outcome: inactive
LOC389329 (retired record) [SID134327549] | mean z-score: 0.17; z-score, replicate A: 0.31; z-score, replicate B: 0.08; z-score, replicate C: 0.1; Outcome: inactive
PACRG [SID134320919] | mean z-score: -1.1; z-score, replicate A: -1.02; z-score, replicate B: -1.06; z-score, replicate C: -1.22; Outcome: inactive
DAPK1 [SID56478797] | mean z-score: 0.47; z-score, replicate A: 0.87; z-score, replicate B: 0.29; z-score, replicate C: 0.25; Outcome: inactive
SPRR1A [SID134323834] | mean z-score: 0.27; z-score, replicate A: 0.31; z-score, replicate B: 0.34; z-score, replicate C: 0.17; Outcome: inactive
LCA5L [SID134320516] | mean z-score: 0.97; z-score, replicate A: 1.01; z-score, replicate B: 0.74; z-score, replicate C: 1.17; Outcome: inactive
